# According to US20120207760A1, “Compositions and Methods for the Therapy and Diagnosis of Influenza” (THERACLONE SCIENCES, published 2012):
# T1: M2 variant of A/Panama/1/1966 (H2N2), expressed on 293 cells (influenza A virus A/Panama/1/66 (H2N2))
# T1 chain: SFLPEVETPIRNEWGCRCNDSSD
# T2: M2 variant of A/chicken/Hong Kong/YU427/2003 (H9N2), expressed on 293 cells (influenza A virus A/chicken/Hong …)
# T2 chain: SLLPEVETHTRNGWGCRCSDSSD
# T3: M2 variant of A/chicken/Hong Kong/SF1/2003 (H9N2), expressed on 293 cells (influenza A virus A/chicken/Hong …)
# T3 chain: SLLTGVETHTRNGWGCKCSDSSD
# Experiments:
# [1] = target: recombinant soluble homotrimeric HA of A/Hong Kong/2108/03 - H9N2 (Influenza A virus A/HK/2108/2003 (H9N2)); assay: micro-array; captured IgG, V5-tagged trimeric HA
# [2] = target: T1, M2 variant of A/Panama/1/1966 (H2N2), …; assay: flow cytometry on 293 cells transfected with natural M2 variants (FIG. 19b)
# [3] = target: T2, M2 variant of A/chicken/Hong …; assay: as above
# [4] = target: T3, M2 variant of A/chicken/Hong …; assay: as above
# [5] = target: hemagglutinin (HA) of influenza A/Wisconsin/67/05 H3N2 (Influenza A virus A/Wisconsin/67/2005 …); assay: ELISA, inactivated whole virions coated; transfection supernatant set 4
# [6] = target: recombinant soluble homotrimeric HA of A/Wisconsin/67/05 (H3N2) (Influenza A virus A/Wisconsin/67/05 …)
# [7] = target: recombinant soluble homotrimeric HA of A/Vietnam/1203/04 (H5N1) (Influenza A virus A/Vietnam/1203/04 …)
# [8] = target: recombinant soluble homotrimeric HA of A/Indonesia/5/05 (H5N1) (Influenza A virus A/Indonesia/5/05 …)
# [9] = target: recombinant soluble homotrimeric HA of A/Anhui/1/05 (H5N1) (Influenza A virus A/Anhui/1/05 (H5N1))
# [10] = target: recombinant soluble homotrimeric HA of A/Netherlands/219/03 (H7N7) (Influenza A virus A/Netherlands/219/03 …)
# [11] = target: T4, recombinant soluble homotrimeric HA of A/California/4/09 (H1N1) (Influenza A virus A/California/4/09 …); assay: microarray, BCC supernatant IgG, trimeric HA
# [12] = target: T5, recombinant soluble homotrimeric HA of A/Solomon Islands/3/06 (H1N1) (Influenza A virus A/Solomon …); assay: microarray, BCC supernatant IgG, trimeric HA
# [13] = target: recombinant soluble homotrimeric HA of A/swine/Ontario/01911-2/99 (H4N6) (Influenza A virus …); assay: microarray, BCC supernatant IgG, trimeric HA
# [14] = target: recombinant soluble homotrimeric HA of A/chicken/Vietnam/NCVD-016/08 (H5N1) (Influenza A virus …); assay: microarray, BCC supernatant IgG, trimeric HA
# [15] = target: recombinant soluble homotrimeric HA of A/northern shoveler/California/HKWF115/07 (Influenza A virus A/northern …); assay: microarray, BCC supernatant IgG, trimeric HA
# [16] = target: recombinant soluble homotrimeric HA of A/duck/Yangzhou/02/05 (H8N4) (Influenza A virus …); assay: microarray, BCC supernatant IgG, trimeric HA
# [17] = target: recombinant soluble homotrimeric HA of A/Hong Kong/2108/03 (H9N2) (Influenza A virus A/Hong Kong/2108/03 …); assay: microarray, BCC supernatant IgG, trimeric HA
# [18] = target: T4, recombinant soluble homotrimeric HA of …; assay: microarray, control antibody, trimeric HA
# [19] = target: T5, recombinant soluble homotrimeric HA of …; assay: microarray, control antibody, trimeric HA
# [20] = target: recombinant soluble homotrimeric HA of A/Japan/305/57 (H2N2) (Influenza A virus A/Japan/305/57 (H2N2))
# [21] = target: recombinant soluble homotrimeric HA of A/Egypt/3300-NAMRU3/08 - H5N1 (Influenza A virus …); assay: micro-array; captured IgG, V5-tagged trimeric HA
# [22] = target: recombinant soluble homotrimeric HA of A/chicken/Vietnam/NCVD-016/08 - H5N1 (Influenza A virus …); assay: micro-array; captured IgG, V5-tagged trimeric HA
# [23] = target: recombinant soluble homotrimeric HA of A/northern shoveler/California/HKWF115/2007 - H6N1 (Influenza A virus A/northern …); assay: micro-array; captured IgG, V5-tagged trimeric HA
binder,measurement,setting,value
"TCN-523 (5248_A17) (antibody, V domains shown) VH: QVQLVQSGAEVKKPGSSVKVSCKASGGSFSNYAFSWVRQAPGQGLEWMGGTIPLLGTTNYAQKFQGRVTISADQFTSTAYMELGSLRSEDTAVYYCTRRKMTTAFDSWGQGTLVTVSS VL: QPVLTQPPSASASLGASVTLTCTLSSAYSNYKVDWYQQRPGKGPRFVMRVGTGGIVGSKGDGIPDRFSVLGSGLNRYLTIKNIQEEDESDYHCGADHGSGSNFVSPYVFGGGTKLTVL",Trimeric HA Binding: RLU,[1],38 RLU
"TCN-032 (8I10) (antibody, V domains shown) VH: QVQLQESGPGLVKPSETLSLTCTVSGSSISNYYWSWIRQSPGKGLEWIGFIYYGGNTKYNPSLKSRVTISQDTSKSQVSLTMSSVTAAESAVYFCARASCSGGYCILDYWGQGTLVTVSS VL: DIQMTQSPSSLSASVGDRVTITCRASQNIYKYLNWYQQRPGKAPKGLISAASGLQSGVPSRFSGSGSGTDFTLTITSLQPEDFATYYCQQSYSPPLTFGGGTRVEIK",binding result,[2],binds
same,binding result,[3],binds
same,binding result,[4],binds
"TCN-535 (5246_P19) (antibody, V domains shown) VH: QVQLVQSGSEVKKPGTSVKVSCTASGSVFTNYGISWVRQAPGQGLEWMGGIIPLFGAAKYAQKFQGRVTITADESTKTVYMELSRLTSKDTAIYFCAKAPRVYEYYFDQWGQGTPVTVSS VL: EIVLTQSPGTLSLSPGERATLSCRASQSVSSSQLAWYQQKPGQAPRLIIYGASTRATGIPDRFSGSGSGTDFTLTIGRLEPEDFAVFFCQQYSTSPPTFGQGTKVDFK",OD450,[5],0.1 OD450
"TCN-536 (5095_N01) (antibody, V domains shown) VH: QVQLQQWGAGLLKPSETLSLTCAVYGGSFSVSGYYWSWIRQPPGRGLEWIGEISHGGSTNYNPSLKSRVTISVDTTKNQFSLRLSSVTAADTAVYYCARGTDPDTEVYCRVGNCAAFDYWGQGSLVTVSS VL: EIILAQSPGTLSLSPGERATLSCRASQFVSTRSLAWYQQRPGQAPRLLIYGASSRATGIPDRFSGSGSGTDFTLTISRLEPEDFAVYYCQHYGYSPRYAFGQGSKVEIK",OD450,[5],3.61 OD450
"TCN-031 (23K12) (antibody, V domains shown) VH: EVQLVESGGGLVQPGGSLRISCAASGFTVSSNYMSWVRQAPGKGLEWVSVIYSGGSTYYADSVKGRFSFSRDNSKNTVFLQMNSLRAEDTAVYYCARCLSRMRGYGLDVWGQGTTVTVSS VL: DIQMTQSPSSLSASVGDRVTITCRTSQSISSYLNWYQQKPGKAPKLLIYAASSLQSGVPSRFSGSGSGTDFTLTISGLQPEDFATYYCQQSYSMPAFGQGTKLEIK",binding result,[2],binds
same,binding result,[3],binds
same,binding result,[4],binds
"TCN-557 (5081_A04) (antibody, V domains shown) VH: QVQLVQSGAEVKKPGASVKVSCKASGHTFTGYYIHWVRQAPGQGLEWMGWINPDSGATSSAQNFQGRVTMTGDTSSSTAYMELSRLSFDDTAVYYCARVLFTSPFDFWGEGTLVTVSS VL: QAVVTQEPSLAVSPGGTVTLTCGSSTGAVTRGHYPYWFQQKPGQAPRALIYDSAGNRHSWTPARFSGSLLGGKAALTLSGAQPEDEAEYYCLLSYSGVWVFGGGTKLTVL",Trimeric HA Binding: RLU,[6],10200 RLU
same,Trimeric HA Binding: RLU,[7],47300 RLU
same,Trimeric HA Binding: RLU,[8],45200 RLU
same,Trimeric HA Binding: RLU,[9],46000 RLU
same,Trimeric HA Binding: RLU,[10],6780 RLU
same,Trimeric HA Binding: RLU,[11],17600 RLU
same,Trimeric HA Binding: RLU,[12],40700 RLU
same,Trimeric HA Binding: RLU,[13],27000 RLU
same,Trimeric HA Binding: RLU,[14],45500 RLU
same,Trimeric HA Binding: RLU,[15],24400 RLU
same,Trimeric HA Binding: RLU,[16],50100 RLU
same,Trimeric HA Binding: RLU,[17],35300 RLU
"TCN-504 (3251_K17) (antibody, V domains shown) VH: QVQLQESGPGLVKPSETLSLTCAVSGVSISNIDFYWGWIRQPPGKGLEWIGNIYYTGITFYNPSLSSRVAISIDTSKNQFSLTLTSVTAADTAMYYCARHYGDSEAINDAFDIWGQGTMLTVSS VL: EIVMTQSPATLSVSPGERATLSCRASQSVGNSLAWYQQRPGQAPRLLIYGASTRATGIPPRFSGSGSGTEFTLTISSLQTEDFAVYYCQQYINWRPLSFGGGTKVEIK",Trimeric HA Binding: RLU,[6],40500 RLU
same,Trimeric HA Binding: RLU,[18],3330 RLU
same,Trimeric HA Binding: RLU,[19],24100 RLU
"TCN-547 (5092_F11) (antibody, V domains shown) VH: QVQLQESGPGLVKPSQTLSLTCTVSGDSISSVDHYWSWIRQHPVKGLEWIGFMYYSASTYYNPSLKSRVTISTDTSKNQFSLRLSSVTAADTAVYYCARGTCAGDCSLHYYYYGLDVWGQGRTVTVSS VL: DIQMTQSPSSLSASVGDRVTITCRASQSISSYLNWYQHKPGKAPKVLMYAVSILQSGVPSRFSGSGSGADFTLTISSLQPEDFATYYCQQSYSSPLTFGGGTKVEIK",Trimeric HA Binding: RLU,[20],40 RLU
same,Trimeric HA Binding: RLU,[6],16900 RLU
same,Trimeric HA Binding: RLU,[10],401 RLU
same,Trimeric HA Binding: RLU,[12],155 RLU
same,Trimeric HA Binding: RLU,[16],278 RLU
"TCN-546 (5089_L08) (antibody, V domains shown) VH: QVQLQQWGAGLLKPSETLSLTCGVYGGSLSDYYWSWIRQPPGKGLEWIGEINHSGGTNYNPSLKRRVTISVDTSKKQFSLKMNSVTAADTAVYYCARGTDPDTEVYCRAGNCAAFDFWGQGTLVTVSS VL: EIVLTQSPGTLSLSPGERATLSCRASHFVIGRAVAWYQQKPGQAPRLLIYGASSRATGIPDRFSGSGSGTDFTLTISRLETEDFAVFYCQHYGSSPRYAFGQGTKLEIK",Trimeric HA Binding: RLU,[20],520 RLU
same,Trimeric HA Binding: RLU,[6],30200 RLU
same,Trimeric HA Binding: RLU,[8],18400 RLU
same,Trimeric HA Binding: RLU,[9],2040 RLU
same,Trimeric HA Binding: RLU,[14],421 RLU
same,Trimeric HA Binding: RLU,[17],13000 RLU
"TCN-534 (5249_B02) (antibody, V domains shown) VH: QVQLVQSGAEVKKPGSSVKVSCRESGGTFNGYTITWVRQAPGQGLEWMGGIIPMMGTVNYAQKLQGRVTITTDYFTKTAYMDLNNLRSEDTAMYYCVKIRYTGQQLLWGQGTLVTVSS VL: DIQMTQSPSTLSASIGDRVTITCRASQSIASWLAWYQQKPGKAPKLLIYEAVNLESGVPSRFSGSGSGTDFTLTISSLQPDDFATYFCQHYGTISQTFGGGTKVEIK [TCN-534 (5249_B02), listing 1 of 2 here]",Trimeric HA Binding: RLU,[21],8310 RLU
same,Trimeric HA Binding: RLU,[22],11400 RLU
same,Trimeric HA Binding: RLU,[23],21300 RLU
same,Trimeric HA Binding: RLU,[1],27 RLU
"TCN-534 (5249_B02) (antibody, V domains shown) VH: QVQLVQSGAEVKKPGSSVKVSCRESGGTFNGYTITWVRQAPGQGLEWMGGIIPMMGTVNYAQKLQGRVTITTDYFTKTAYMDLNNLRSEDTAMYYCVKIRYTGQQLLWGQGTLVTVSS VL: DIQMTQSPSTLSASIGDRVTITCRASQSIASWLAWYQQKPGKAPKLLIYEAVNLESGVPSRFSGSGSGTDFTLTISSLQPDDFATYFCQHYGTISQTFGGGTKVEIK [TCN-534 (5249_B02), listing 2 of 2 here]",OD450,[5],0.08 OD450
